Results of unrelated studies side by side (data: NIAID ChemDB).

Shared fields: growth or infection tests; species: Candida albicans; read-out: MIC80

Lines come from different laboratories, so protocols vary. A number after MIC or MFC names an inhibition level or a share of isolates. Blank or dashed fields: not listed here.

SMILES,strain,result
Oc1ccc(C=Nc2ccc3cccc(O)c3n2)cc1,,3.91 µg/mL
CO[C@@H]1[C@@H](O)[C@H](O[C@@H]2[C@@H](O)[C@H](O[C@H]3[C@H](O)[C@@H](O)[C@H](O[C@H]4[C@H](O[C@H]5CC[C@]6(C)C7=C[C@H](O)[C@]89C(=O)O[C@@](C)(C/C=C/C(C)(C)O)[C@H]8CC[C@@]9(C)[C@@H]7CC[C@H]6C5(C)C)OC[C@@H](O[C@@H]5O[C@H](CO)[C@@H](O)[C@H](O[C@@H]6O[C@H](CO)[C@@H](O)[C@H](OC)[C@H]6O)[C@H]5O)[C@@H]4O)O[C@@H]3C)O[C@H](CO)[C@H]2O)O[C@H](CO)[C@H]1O,ATCC 76615,44.44 µM
C=CCSSSSCC=C,39 isolates,0.5 µg/mL
CO[C@@H]1[C@@H](O)[C@H](O[C@@H]2[C@@H](O)[C@H](O[C@H]3[C@H](O)[C@@H](O)[C@H](O[C@H]4[C@H](O[C@H]5CC[C@]6(C)C7=C[C@H](O)[C@]89C(=O)O[C@@](C)(CCCC(C)(C)OC(C)=O)[C@H]8CC[C@@]9(C)[C@@H]7CC[C@H]6C5(C)C)OC[C@@H](O[C@@H]5O[C@H](CO)[C@@H](O)[C@H](O[C@@H]6O[C@H](CO)[C@@H](O)[C@H](OC)[C@H]6O)[C@H]5O)[C@@H]4O)O[C@@H]3C)O[C@H](CO)[C@H]2O)O[C@H](CO)[C@H]1O,ATCC 76615,43.13 µM
Oc1ccccc1N=Cc1ccc2cccc(O)c2n1,,62.5 µg/mL
CN(C/C=C/C#CC(C)(C)C)Cc1cccc2ccccc12,ATCC 76615,12.23 µM
C=CCSCC=C,39 isolates,32 µg/mL
NC(N)=Nc1ccc(Sc2ccccc2)cc1,ATCC 44859,500 µM
C[N+]1=CC2C(=O)c3nccc4ccnc(c34)C2C1,,>64 µg/mL
CCCCCCCCCCCCN=C(N)N,ATCC 44859,7.81 µM
Oc1cccc(N=Cc2ccc3cccc(O)c3n2)c1,,125 µg/mL
CCCCCCSc1ccc(N=C(N)N)cc1,ATCC 44859,31.25 µM
C=C(C)CCC[C@]1(C)OC(=O)[C@]23[C@@H](O)C=C4[C@@H](CC[C@H]5C(C)(C)[C@@H](O[C@@H]6OC[C@@H](O[C@@H]7O[C@H](CO)[C@@H](O)[C@H](O[C@@H]8O[C@H](CO)[C@@H](O)[C@H](OC)[C@H]8O)[C@H]7O)[C@H](O)[C@H]6O[C@@H]6O[C@H](C)[C@@H](O[C@@H]7O[C@H](CO)[C@@H](O)[C@H](O[C@@H]8O[C@H](CO)[C@@H](O)[C@H](OC)[C@H]8O)[C@H]7O)[C@H](O)[C@H]6O)CC[C@]45C)[C@]2(C)CC[C@@H]31,ATCC 76615,2.81 µM
CCCCCCCSc1ccc(N=C(N)N)cc1,ATCC 44859,31.25 µM
C[C@@H](c1ncncc1F)[C@](O)(Cn1cncn1)c1ccc(F)cc1F,ATCC 76615,0.01 µM

For reference, 2 entries again:

SMILES	strain	result
CN(C/C=C/C#CC(C)(C)C)Cc1cccc2ccccc12	ATCC 76615	12.23 µM
CO[C@@H]1[C@@H](O)[C@H](O[C@@H]2[C@@H](O)[C@H](O[C@H]3[C@H](O)[C@@H](O)[C@H](O[C@H]4[C@H](O[C@H]5CC[C@]6(C)C7=C[C@H](O)[C@]89C(=O)O[C@@](C)(CCCC(C)(C)OC(C)=O)[C@H]8CC[C@@]9(C)[C@@H]7CC[C@H]6C5(C)C)OC[C@@H](O[C@@H]5O[C@H](CO)[C@@H](O)[C@H](O[C@@H]6O[C@H](CO)[C@@H](O)[C@H](OC)[C@H]6O)[C@H]5O)[C@@H]4O)O[C@@H]3C)O[C@H](CO)[C@H]2O)O[C@H](CO)[C@H]1O	ATCC 76615	43.13 µM